Experimental data from patent US20020049257A1, “Antibacterial composition” (priority 2000, published 2002).

Experiment: Odor value / olfactive evaluation

Compound | odor (in words)
COC1CCC(C2CC3CC2C(C)C3(C)C)CC1O (centres unmarked) [2-methoxy-5-(5,5,6-trimethyl-bicyclo[2.2.1]hept-2-yl)cyclohexan-1-ol] | odorless
COC1CC(C2CC3CC2C(C)C3(C)C)CCC1O (centres unmarked) [2-methoxy-4-(5,5,6-trimethylbicyclo[2.2.1]hept-2-yl)cyclohexan-1-ol] | odorless
